This note sets out measurements from article PMC10385743.

Structures are written as SMILES.

Common to all, as to conditions: CC50 (Huh5-2)/EC50
In series [1] the test system is DENV serotype 2 (strain 16681) subgenomic replicon. Type of series: cell-based, dengue virus.
Series [2] has as its system HCV GT 4a (strain ED43) subgenomic replicon. Type of series: cell-based, hepatitis C virus.
For series [3], the system named is HCV GT 3a (strain S52) subgenomic replicon. Format: cell-based, hepatitis C virus.
Series [4] concerns YFV (strain 17D) subgenomic replicon. Type of series: cell-based, yellow fever virus.

Regarding `CC(C(=O)NO)N1C(=O)N(C)C2(CCC(c3ccccc3)CC2)C1=O` (stereo not drawn) [Compound 53, N-(hydroxy)-2-(1-methyl-2,4-dioxo-8-phenyl-1,3-diazaspiro [4.5]decan-3-yl)propanamide], in series [1], the “Huh7-D2 (DENV-2 Replicon) SI” value came out at 41. For the same compound, the “Huh7.5-4a(ED43) (HCV Replicon 4a) SI” value in series [2] is 358.
Turning to `CN1C(=O)N(CC(=O)NO)C(=O)C12CCCCC2c1ccccc1` (stereo not drawn) [Compound 39, N-Hydroxy-2-(1-methyl-2,4-dioxo-6-phenyl-1,3-diazaspiro [4.5]decan-3-yl)acetamide], the “Huh7-D2 (DENV-2 Replicon) SI” value in series [1] is 2.
In the case of `CC1CCC2(NC(=O)N(CC(=O)NO)C2=O)c2ccccc21` [Compound 35, Ν-(Hydroxy)-2-((4R,4′R)/(4S,4′S)-4′-methyl-2,5-dioxo-3′,4′-dihydro-2′H-spiro[imidazolidine-4,1′-naphthalene]-1-yl)acetamide], the “Huh7.5-3a(S52) (HCV Replicon 3a) SI” value in series [3] amounted to 260. Further, the “Huh7.5-4a(ED43) (HCV Replicon 4a) SI” value in series [2] is 488.
In the same order, the values of `CC1CCC2(NC(=O)N(CC(=O)NO)C2=O)c2ccccc21` [Compound 34, Ν-(hydroxy)-2-((4R,4′S)/(4S,4′R)-4′-methyl-2,5-dioxo-3′,4′-dihydro-2′H-spiro[imidazolidine-4,1′-naphthalene]-1-yl)acetamide] are 318 and 1429.
In the case of `CN1C(=O)N(CC(=O)NO)C(=O)C12CCC(c1ccccc1)CC2` (stereo not drawn) [Compound 38, N-Hydroxy-2-(1-methyl-2,4-dioxo-8-phenyl-1,3-diazaspiro [4.5]decan-3-yl)acetamide], in series [1], the “Huh7-D2 (DENV-2 Replicon) SI” value was found to be 4. The “Huh7.5-3a(S52) (HCV Replicon 3a) SI” value in series [3] turned out to be 69. For the same compound, in series [2], the “Huh7.5-4a(ED43) (HCV Replicon 4a) SI” value was 196.
In the same order, the values of `O=C(CN1C(=O)NC2(CCC(c3ccccc3)CC2)C1=O)NO` (stereo not drawn) [Compound 36, N-Hydroxy-2-(2,4-dioxo-8-phenyl-1,3-diazaspiro [4.5]decan-3-yl) acetamide] are 16, 101 and 193.
Regarding `O=C(CN1C(=O)N(Cc2ccccc2)C2(CCCCC2c2ccccc2)C1=O)NO` (stereo not drawn) [Compound 42, N-Hydroxy-2-(1-benzyl-2,4-dioxo-6-phenyl-1,3-diazaspiro [4.5]decan-3-yl)acetamide], the “Huh7-D2 (DENV-2 Replicon) SI” value in series [1] is given as 7. The “Huh7.5-4a(ED43) (HCV Replicon 4a) SI” value in series [2] was 21. In series [4], the “Huh7-YF (YFV Replicon 17D) SI” value is 2.
For `CC(C(=O)NO)N1C(=O)NC2(CCC(c3ccccc3)CC2)C1=O` (stereo not drawn) [Compound 49, N-(Hydroxy)-2-(2,4-dioxo-8-phenyl-1,3-diazaspiro [4.5]decan-3-yl)propanamide], the “Huh7-YF (YFV Replicon 17D) SI” value in series [4] is listed as 1.
In the case of `CCN1C(=O)N(CC(=O)NO)C(=O)C12CCC(c1ccccc1)CC2` (stereo not drawn) [Compound 40, N-Hydroxy-2-(1-ethyl-2,4-dioxo-8-phenyl-1,3-diazaspiro [4.5]decan-3-yl)acetamide], the “Huh7-D2 (DENV-2 Replicon) SI” value in series [1] was found to be 15.62. Besides, the “Huh7.5-3a(S52) (HCV Replicon 3a) SI” value in series [3] is on record as 20. Besides, the “Huh7.5-4a(ED43) (HCV Replicon 4a) SI” value in series [2] is 34. In addition, the “Huh7-YF (YFV Replicon 17D) SI” value in series [4] is recorded as 1.59.
